Assay results from ChEMBL document CHEMBL4673185 (RSC Med Chem, 2020).

Experiment: Induction of muscle contraction in snail buccal mass

Structure (SMILES): CC(C)[C@H](NC(=O)[C@H](CCCNC(=N)N)NC(=O)[C@H](CCC(N)=O)NC(=O)[C@H](C)NC(=O)[C@H](CO)NC(=O)CNC(=O)[C@H](CCCCN)NC(=O)[C@@H](NC(=O)[C@H](Cc1ccccc1)NC(=O)[C@H](C)N)C(C)C)C(=O)N[C@@H](C)C(=O)N[C@@H](Cc1cnc[nH]1)C(=O)NCC(=O)N[C@@H](Cc1ccc(O)cc1)C(=O)O
- EC50: 8 nM
